Laboratory results reported in US7910622B2, “Modulation of bacterial quorum sensing with synthetic ligands” (Wisconsin Alumni Research Foundation, priority 2007, dated 2011).
Several values for one entry are separate records, joined by “and”; a condition that tells them apart may be missing. Equal values may be shown once.

By UniProt entry, the sequences of proteins in these tests, tags left out.
UniProt P25084, whole entry: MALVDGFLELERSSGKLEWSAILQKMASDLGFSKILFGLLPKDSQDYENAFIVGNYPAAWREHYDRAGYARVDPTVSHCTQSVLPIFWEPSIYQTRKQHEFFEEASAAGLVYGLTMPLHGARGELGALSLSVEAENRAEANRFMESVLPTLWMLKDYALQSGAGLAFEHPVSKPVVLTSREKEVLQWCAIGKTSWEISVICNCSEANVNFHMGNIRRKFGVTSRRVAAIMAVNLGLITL
UniProt P33905, whole entry: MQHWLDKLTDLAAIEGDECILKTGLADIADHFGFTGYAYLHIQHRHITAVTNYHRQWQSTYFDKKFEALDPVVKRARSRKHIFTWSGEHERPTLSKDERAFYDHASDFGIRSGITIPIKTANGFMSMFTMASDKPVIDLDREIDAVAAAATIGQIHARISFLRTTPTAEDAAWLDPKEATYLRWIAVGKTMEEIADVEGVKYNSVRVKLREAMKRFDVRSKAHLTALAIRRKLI

Experiments:
LasR [1] = molecular target: T1, LasR (Pseudomonas aeruginosa, UniProt P25084); details: for IC50: read-out: LasR IC50, determined against 7.5 nM OdDHL
TraR [2] = molecular target: T2, TraR (Agrobacterium tumefaciens, UniProt P33905)
LasR [3] = molecular target: T1, LasR
TraR [4] = molecular target: T2, TraR; remark: listed apart in the source

O=C(Cc1cccc(Cl)c1)N[C@H]1CCOC1=O
IC50 (LasR [1]): 3.97 µM
A. tumefaciens-TraR Activation [%] (TraR [2]; 10 μM ligand, A. tumefaciens WCF47 (pCF372), normalized to OOHL): 0%

O=C(Cc1cccc(Br)c1)N[C@H]1CCOC1=O
E. coli-LasR Activation [%] (LasR [3]; 5 μM ligand, E. coli DH5α (pJN105L pSC11), normalized to OdDHL): 3% and 2%
IC50 (LasR [1]): 4.06 µM

O=C(CCCc1ccccc1)N[C@H]1CCOC1=O
IC50 (TraR [4]; read-out: TraR IC50, determined against 100 nM OOHL): 1.12 µM

CCCCCC(=O)CC(=O)N[C@H]1CCOC1=O [compound 1, N-(3-oxo-octanoyl)-L-homoserine lactone]
LasR: concentration at which the compound elicits its maximal inhibition (value in parentheses) (LasR [1]; against 7.5 nM OdDHL, dose response curve did not reach 100% inhibition): 2.0 µM
EC50 (TraR [2]; read-out: TraR EC50): 0.25 µM
A. tumefaciens-TraR Inhibition [%] (TraR [4]; 10 μM synthetic ligand against 100 nM OOHL, A. tumefaciens WCF47 (pCF372), normalized to OOHL): 59%

CC(C)(C)OC(=O)Nc1ccc(CC(=O)N[C@H]2CCOC2=O)cc1
EC50 (LasR [3]; read-out: LasR EC50): > 200 µM
